Compound potency records, mixed from different reports. Data source: NIAID ChemDB in PubChem.

Common to all: toxicity to cultured cells; cell line: HepG2; read-out: CC50

CCn is the concentration with n% toxicity to the cells. Blank or dashed fields: not listed here. Two numbers with a dash give a range or band. Lines come from different laboratories, so protocols vary.

| SMILES | read by | result |
|---|---|---|
| CCc1ccc(Nc2nc(NCCCCNc3ccnc4cc(Cl)ccc34)nc(N3CCOCC3)n2)cc1 | - | 31.8 µM |
| COc1cccc(Oc2ccc3c(NCCCNCc4cccc(OC)c4O)ccnc3c2)c1 | fluorescence | 5.3 µM |
| Cc1cc(NC(=O)c2c(C)c(C(=O)C(=O)NCC(C)(C)O)n(C)c2C2CC2)ccc1F | MTT | 5–30 µM |
| COc1ccc(F)cc1CNCCCNc1ccnc2cc(-c3ccc(C(C)(C)C)cc3)ccc12 | fluorescence | 0.62 µM |
| CC(C)OC(=O)[C@H](C)NP(=O)(OC[C@H]1O[C@@H](n2ccc(N)nc2=O)C(F)(F)C1(F)F)Oc1ccccc1 | - | >100 µM |
| COc1ncc2ccc(=O)n(CCN[C@@H]3CC[C@@H]4[C@@H](C3)OC(=O)N4c3ccc4c(n3)NC(=O)CO4)c2n1 | luminescence | >100 µg/mL |
| Nc1cn([C@@H]2C[C@H](O)[C@@H](CO)O2)c(=O)nc1N | - | >10 µM |
| CNC(=O)c1c(Cl)c(-n2c([C@H](O)C(C)C)nc3c(c2=O)C[C@@H](C)N(C(=O)c2ccc(Br)c(C(F)(F)F)c2)C3)nn1C | luminescence | 29 µM |
| O=C(O)c1ccc(N2C(=O)c3cccc([N+](=O)[O-])c3C2=O)cc1O | visual reading / absorbance | >100 µg/mL |
| CNC(=O)c1ccc(-n2c(C(C)C)nc3c(c2=O)C[C@@H](C)N(C(=O)c2ccc(Cl)c(C(F)(F)F)c2)C3)cc1 | luminescence | >50 µM |
| Nc1nc(N)nc(-c2ccc(Oc3ccccc3)cc2)n1 | sulforhodamine / absorbance | >286 µM |
| Cc1c(Cc2ccccc2Br)cnc2nc(N)nc(N)c12 | resazurin / fluorescence | 40 µM |
| Nc1ncnc2c1c(-c1cccs1)cn2[C@@H]1O[C@H](CO)[C@@H](O)[C@H]1F | XTT | >10 µM |
| COc1ccc2nc3cc(Cl)ccc3c(NCCCCNC(=O)/C=C/c3ccc(Br)cc3)c2c1 | MTT | 3.4 µM |
| COc1cccc(CNCCCNc2ccnc3cc(-c4cc(C(F)(F)F)cc(C(F)(F)F)c4)ccc23)c1O | fluorescence | 0.94 µM |
| N#Cc1ccc2ccc(=O)n(CCN(CCN)[C@H]3CC[C@H]4[C@@H](C3)OC(=O)N4c3ccc4c(n3)NC(=O)CO4)c2c1 | luminescence | >100 µg/mL |
| Cc1ccc2[nH]c3cc(C#N)c(=O)oc3c2c1 | visual reading / absorbance | 0.8 µg/mL |
| CCN(CC)CCCN=C(Nc1ccnc2cc(Cl)ccc12)c1ccccc1 | MTT | 12.02 µg/mL |
| CC(C)(C)C(=O)SCCOP(=O)(OCCOCn1cnc2c(=O)[nH]c(N)nc21)OCCSC(=O)C(C)(C)C | - | 1600 µM |
| Nc1cn([C@H]2CC[C@@H](CO)O2)c(=O)nc1N | - | >10 µM |
| Nc1nc(N)nc(-c2ccc(Oc3ccccc3Cl)cc2)n1 | sulforhodamine / absorbance | >255 µM |
| CC(C)(C)c1ccc(N2CCN(Cc3ccc([N+](=O)[O-])o3)CC2)cc1 | MTT | >58 µM |
| CC1(C)C(=O)C=C[C@]2(C)[C@@H]1CC[C@@]13CC[C@@H](C[C@H]12)[C@](O)(CO)C3 | MTT | >100 µM |
| Nc1nc(=O)n([C@H]2C[C@H](O)[C@@H](CO)O2)cc1[N+](=O)[O-] | - | >10 µM |
| C[C@H](NC(=O)[C@H](Cc1ccccc1)C[C@@H](O)[C@H](Cc1ccccc1)NC(=O)OC(C)(C)C)C(=O)N[C@@H]1C(=O)N(C)c2ccccc2-c2ccccc21 | - | >10 µM |
| Cc1cn([C@@H]2O[C@H](COP(=O)(N[C@@H](C)C(=O)OC(C)C)Oc3ccccc3)C(F)(F)C2(F)F)c(=O)[nH]c1=O | - | >100 µM |
| COc1ccnc2[nH]cc(C(=O)C(=O)N3CCN(C(=O)c4ccccc4)C[C@H]3C)c12 | - | >225 µM |
| CNC(=O)c1ccc(-n2c(NC(C)C)nc3c(c2=O)C[C@@H](C)N(C(=O)c2ccc(Cl)c(C(F)(F)F)c2Cl)C3)cc1 | luminescence | >50 µM |
| COc1ccc2ccc(=O)n(CCN[C@@H]3CC[C@@H]4[C@@H](C3)OC(=O)N4c3ccc4c(n3)NC(=O)CO4)c2n1 | luminescence | >100 µg/mL |
| Cc1cc(NC(=O)c2c(C)c(C(=O)C(=O)NC3(C4CC4)CCC(O)CC3)n(C)c2C)ccc1F | MTT | >30 µM |
| CC[C@H]1OC(=O)[C@H](C)[C@@H](O)[C@H](C)[C@@H](O[C@@H]2O[C@H](C)C[C@H](N(C)CCCNC(=O)CCCNc3ccnc4cc(Cl)ccc34)[C@H]2O)[C@](C)(O)C[C@@H](C)CN(C)[C@H](C)[C@@H](O)[C@]1(C)O | MTS | >50 µM |
| Nc1ncnc2c1c(-c1ccco1)cn2[C@@H]1O[C@H](CO)[C@@H](O)C1(F)F | XTT | >10 µM |
| CC(C)(C)c1ccc(Oc2ccc(-c3nc(N)nc(N)n3)cc2)cc1 | sulforhodamine / absorbance | >239 µM |
| CC(C)OC(=O)[C@H](C)NP(=O)(OC[C@H]1O[C@@H](n2cnc3c(N)ncnc32)C(F)(F)C1(F)F)Oc1ccccc1 | - | >100 µM |
| N#Cc1ccc(Cn2ccc3c4c(N)nc(N)nc4ccc32)cc1 | resazurin / fluorescence | 10 µM |
| Cc1cc(NC(=O)c2c(C)c(C(=O)C(=O)NC3CCC(O)CC3)n(C)c2-c2ccccn2)ccc1F | MTT | >30 µM |
| Nc1ncnc2c1c(-c1ccoc1)cn2[C@H]1O[C@H](CO)[C@@H](O)C1(F)F | XTT | >10 µM |
| Cc1cc(NC(=O)c2c(C)c(C(=O)C(=O)N[C@@H]3CCCN(C(=O)Nc4ccc(F)c(F)c4)C3)n(C)c2C)ccc1F | MTT | 5–30 µM |
| Nc1ncnc2c1c(-c1ccsc1)cn2[C@H]1O[C@H](CO)[C@@H](O)C1(F)F | XTT | >10 µM |
| Cc1cc(Oc2ccc(-c3nc(N)nc(N)n3)cc2)ccc1Cl | sulforhodamine / absorbance | >244 µM |
| Nc1ncnc2c1c(I)cn2[C@@H]1O[C@H](CO)[C@@H](O)[C@H]1F | XTT | 0.15 µM |
| COc1ccc(/C=C/C(=O)NCCCCNc2c3ccc(Cl)cc3nc3ccc(OC)cc23)cc1 | MTT | 20.5 µM |
| C/C=C(\C)C(=O)OC[C@]1(C)C(=O)CC[C@@]2(C)[C@@H]3CC[C@H]4C[C@@]3(CC[C@@H]21)C[C@@]4(O)CO | MTT | 0.01 µM |
| COc1ccc(-c2ccc3c(NCCCNCc4cccc(OC)c4O)ccnc3c2)cc1 | fluorescence | 1.6 µM |
| O=c1ccn([C@@H]2O[C@H](CO)C(F)(F)C2(F)F)c(=O)[nH]1 | - | >100 µM |
| CNC(=O)c1cc(-n2c(NC(C)C)nc3c(c2=O)C[C@@H](C)N(C(=O)c2ccc(Br)c(C(F)(F)F)c2)C3)on1 | luminescence | >50 µM |
| Nc1nc(N)nc(-c2ccc(Oc3ccc(Cl)cc3)cc2)n1 | sulforhodamine / absorbance | >255 µM |
| Nc1cn([C@@H]2CC[C@@H](CO)O2)c(=O)[nH]c1=O | - | >10 µM |
| CC[C@H]1OC(=O)[C@H](C)[C@@H](O[C@H]2C[C@@](C)(OC)[C@@H](O)[C@H](C)O2)[C@H](C)[C@@H](O[C@@H]2O[C@H](C)C[C@H](N(C)C(=O)CCCNc3ccnc4cc(Cl)ccc34)[C@H]2O)[C@](C)(O)C[C@@H](C)CN(C)[C@H](C)[C@@H](O)[C@]1(C)O | MTS | >50 µM |
| COc1cccc(CNCCCNc2ccnc3cc(CC4CCCCC4)ccc23)c1O | fluorescence | 0.97 µM |
| Nc1ncnc2c1c(-c1ccsc1)cn2[C@@H]1O[C@H](CO)[C@@H](O)[C@H]1F | XTT | >10 µM |
| CCC1(NC(=O)C(=O)c2c(C)c(C(=O)Nc3ccc(F)c(C)c3)c(C)n2C)CCN(c2nccs2)CC1 | MTT | 5–30 µM |
| Nc1ncnc2c1c(-c1ccsc1)cn2[C@@H]1O[C@H](CO)[C@@H](O)C1(F)F | XTT | >10 µM |
| COc1ccc(F)cc1CNCCCNc1ccnc2cc(Cc3ccc(F)cc3Cl)ccc12 | fluorescence | 2.46 µM |
| Cc1csc(C2(NC(=O)c3c(C)c(C(=O)C(=O)NC(C)(C)C)n(C)c3C)CCCC2)n1 | MTT | >30 µM |
| Nc1ncnc2c1ncn2[C@@H]1O[C@H](CO)C(F)(F)C1(F)F | - | >100 µM |